Measured values from several laboratories, pooled; numbers as filed in NIAID ChemDB.

Common to all: host cell toxicity; cells: MRC-5; read-out: CC50

CCn is the concentration with n% toxicity to the cells. Rows are shuffled and stem from different studies.

SMILES	value
Nc1nc(=O)n([C@@H]2O[C@H](CO)[C@@H](O)[C@@H]2F)cc1I	9.1 µg/mL
COc1ccc2c(c1OC)C=[N+]1CCc3cc4c(cc3C1C2)OCO4	74 µM
Nc1nc2c(sc(=O)n2C/C=C\CO)c(=O)[nH]1	>300 µM
O=C1c2ccccc2N(Cc2ccc(C(F)(F)F)cc2)S(=O)(=O)N1Cc1ccc(C(F)(F)F)cc1	>48 µM
Nc1nc2c(ccn2[C@@H]2C[C@H](CO)[C@@H](O)[C@@H]2O)c(=O)[nH]1	>100 µg/mL
O=S1(=O)N=C(OCc2ccc(Cl)c(Cl)c2)c2ccccc2N1Cc1ccc(Cl)c(Cl)c1	>48 µM
OC[C@@H]1C[C@H](n2c(Br)nc3cc(Cl)c(Cl)cc32)CO1	100 µM
CC#Cc1cn([C@@H]2O[C@H](COP(=O)(N[C@@H](C)C(=O)OC)Oc3ccccc3)[C@@H](O)[C@@H]2O)c(=O)[nH]c1=O	>500 µM
CCCCCCCCCCCCCCCCOCCCOP(=O)(O)OCC(CO)CCn1cnc2c(=O)[nH]c(N)nc21	>158 µM
CSc1nc2ccc(OCCC3CCN(c4ccc(C)nn4)CC3)cc2o1	>1 µg/mL
CC(C)OC1=NS(=O)(=O)N(Cc2ccc(Cl)cc2)c2ccccc21	2.7 µM
O=C1c2sccc2N(Cc2ccc(Cl)cc2)S(=O)(=O)N1Cc1ccccc1	59.6 µM
O=C1CCC(N2C(=O)c3ccccc3C2=O)C(=O)N1	>10 µg/mL
CC1(C)CC[C@]2(C(=O)OC3O[C@H](CO)[C@@H](O)[C@H](O)[C@H]3O)CC[C@]3(C)C(=CCC4[C@@]5(C)CCC(O[C@@H]6O[C@H](C(=O)O)[C@@H](O)[C@H](O)[C@H]6O)C(C)(C)C5CC[C@]43C)[C@H]2C1	1100 µM
O=C1C=CN(Cc2ccc(Cl)cc2)S(=O)(=O)N1Cc1ccc(Cl)cc1	25.1 µM
O=S(=O)(O)c1cc(NS(=O)(=O)c2ccc(-c3ccc(S(=O)(=O)Nc4cc(S(=O)(=O)O)c5cccc(S(=O)(=O)O)c5c4)cc3)cc2)cc2c(S(=O)(=O)O)cccc12	>500 µM
C=Cc1cn([C@H]2C[C@H](O)[C@@H](CO)O2)c(=S)[nH]c1=O	>277.6 µM
C[C@H]1[C@H](O)[C@@H](CO)O[C@H]1n1cc(Br)c(N)nc1=O	>100 µg/mL
Nc1nc2c(ncn2OCCCCP(=O)(O)O)c(=O)[nH]1	>100 µg/mL
O=S1(=O)N=C(OCc2ccc(Cl)cc2)C=CN1Cc1ccc(Cl)cc1	25.1 µM
CC(C)Nc1nc2cc(Cl)c(Cl)cc2n1[C@@H]1CO[C@H](C)[C@H]1O	32 µM
CCCCN1C(=O)c2ccccc2N(C(=O)c2ccccc2)S1(=O)=O	61.5 µM
Nc1nc(N)c2ncn(COCCCP(=O)(O)O)c2n1	69 µM
Nc1nc(=S)n([C@@H]2O[C@H](CO)[C@@H](O)[C@@H]2O)cc1F	>361 µM
CC(C)Nc1nc2cc(Cl)c(Cl)cc2n1[C@H]1O[C@@H](CO)[C@H](O)[C@@H]1O	100 µM
C#Cc1cn([C@H]2C[C@H](O)[C@@H](CO)O2)c(=O)[nH]c1=O	50 µM
O=S1(=O)N=C(OCc2ccccc2)c2ccccc2N1Cc1ccc(Cl)c(Cl)c1	>56 µM
Nc1ccn(C[C@@H](CO)OCP(=O)(O)O)c(=O)n1	50 µg/mL
Nc1ccn([C@@H]2O[C@H](CO)[C@@H](O)[C@H]2O)c(=S)n1	>386 µM
Nc1nc2c(ncn2COC(CO)COP(=O)(O)O)c(=O)[nH]1	>1000 µM
O=C1c2ccccc2N(Cc2ccccc2)S(=O)(=O)N1Cc1cc(Cl)c(Cl)c(Cl)c1Cl	>60 µM
N#Cc1ccc(CN2c3ccccc3C(=O)N(Cc3ccccc3)S2(=O)=O)cc1	>62 µM
CC(C)Nc1nc2cc(Cl)c(Cl)cc2n1[C@@H]1CO[C@H](CO)[C@H]1O	32 µM
Cc1ccc(C(=O)Nc2ccc(S(=O)(=O)O)c3cc(S(=O)(=O)O)cc(S(=O)(=O)O)c23)cc1NC(=O)c1cccc(NC(=O)Nc2cccc(C(=O)Nc3cc(C(=O)Nc4ccc(S(=O)(=O)O)c5cc(S(=O)(=O)O)cc(S(=O)(=O)O)c45)ccc3C)c2)c1	>500 µM
Cc1cn([C@H]2C[C@H](N=C(N)NC#N)[C@@H](CO)O2)c(=O)[nH]c1=O	>100 µM
COc1cc2oc(-c3ccccc3)cc(=O)c2c(OC)c1OC	37 µg/mL
Cc1cn([C@H]2C[C@H](NC(N)=O)[C@@H](CO)O2)c(=O)[nH]c1=O	>100 µM
COc1ccc(Cn2cc(C(N)=S)c3c(N)ncnc32)cc1	80 µM
CCc1nc2ccc(OCCC3CCN(c4ccc(C)nn4)CC3)cc2o1	>1 µg/mL
O=c1[nH]c(=S)n([C@H]2C[C@H](O)[C@@H](CO)O2)cc1Cl	360 µM
O=S1(=O)N=C(OCC2CCCCC2)c2ccccc2N1Cc1ccc(Cl)c(Cl)c1	5.5 µM
O=c1[nH]c(=O)n([C@@H]2O[C@H](CO)[C@@H](O)[C@@H]2F)cc1I	9.3 µg/mL
O=S1(=O)N=C(OCc2ccc(-c3ccccc3)cc2)c2ccccc2N1Cc1ccc(-c2ccccc2)cc1	>47 µM
COC1=NS(=O)(=O)N(Cc2ccc(Cl)cc2)c2ccccc21	7.4 µM
CC(=O)Nc1cc(S(=O)(=O)O)cc2cc(S(=O)(=O)O)cc(O)c12	>500 µM
CCCCN1C(=O)c2ccccc2N(Cc2ccccc2)S1(=O)=O	63.7 µM
CC(O)c1cn([C@@H]2O[C@H](CO)[C@@H](O)[C@@H]2O)c(=S)[nH]c1=O	>263.5 µM
Nc1nc2c(ncn2C[C@@H]2CC[C@@H](P(=O)(O)O)O2)c(=O)[nH]1	28 µg/mL
[C-]#[N+][C@H]1C[C@H](n2cc(C)c(=O)[nH]c2=O)O[C@@H]1CO	20 µM
O=c1[nH]c(=S)n([C@@H]2O[C@H](CO)[C@@H](O)[C@@H]2O)cc1/C=C/Br	>213 µM
CCCCCCCCCCCCCCCCOCCCOP(=O)(O)OCC(CO)OCn1cnc2c(=O)[nH]c(N)nc21	>158 µM
CCCCCCCC/C=C\CCCCCCCCOCCOP(=O)(O)CCCOCn1cnc2c(=O)[nH]c(N)nc21	30 µM
CCc1nn(CCO)c(CC)c1Oc1cc(C#N)cc(C#N)c1	>64 µM
CC(O)c1cn([C@@H]2O[C@H](CO)[C@@H](O)[C@@H]2O)c(=S)nc1N	>244.8 µM
CCCCCCCCCCCCCCCCOCCCOP(=O)(O)CCCOCn1cnc2c(N)nc(N)nc21	47 µM
Nc1ccn(C[C@@H](CO)OCP(=O)(O)O)c(=O)n1	1450 µM
CC(C)COC1=NS(=O)(=O)N(Cc2ccc(Cl)cc2)c2ccccc21	65.9 µM
Nc1nc2c(ncn2CCC(CO)CO)c(=O)[nH]1	160 µg/mL
CC(C)N1C(=O)c2ccccc2N(Cc2ccc(Cl)cc2)S1(=O)=O	6.8 µM
Nc1nc(=S)n([C@H]2C[C@H](O)[C@@H](CO)O2)cc1Cl	362 µM
Nc1nc2c(ncn2COC(CO)CO)c(=O)[nH]1	110 µM
O=c1[nH]c(=S)n([C@H]2C[C@H](O)[C@@H](CO)O2)cc1Br	311 µM
CCCCCCCCCCCCCCCCCCOCCOP(=O)(O)CCCOCn1cnc2c(=O)[nH]c(N)nc21	36 µM